Experimental findings from BindingDB's records for 10.1007/s00044-011-9804-0, “Synthesis and enzyme inhibitory activities of some new pyrazole-based heterocyclic compounds” (2012) are described below.

Sequences of proteins named here, by UniProt entry; tags and fusion partners are left off. Residues count along the entry.
UniProt J3SE37, 1-563: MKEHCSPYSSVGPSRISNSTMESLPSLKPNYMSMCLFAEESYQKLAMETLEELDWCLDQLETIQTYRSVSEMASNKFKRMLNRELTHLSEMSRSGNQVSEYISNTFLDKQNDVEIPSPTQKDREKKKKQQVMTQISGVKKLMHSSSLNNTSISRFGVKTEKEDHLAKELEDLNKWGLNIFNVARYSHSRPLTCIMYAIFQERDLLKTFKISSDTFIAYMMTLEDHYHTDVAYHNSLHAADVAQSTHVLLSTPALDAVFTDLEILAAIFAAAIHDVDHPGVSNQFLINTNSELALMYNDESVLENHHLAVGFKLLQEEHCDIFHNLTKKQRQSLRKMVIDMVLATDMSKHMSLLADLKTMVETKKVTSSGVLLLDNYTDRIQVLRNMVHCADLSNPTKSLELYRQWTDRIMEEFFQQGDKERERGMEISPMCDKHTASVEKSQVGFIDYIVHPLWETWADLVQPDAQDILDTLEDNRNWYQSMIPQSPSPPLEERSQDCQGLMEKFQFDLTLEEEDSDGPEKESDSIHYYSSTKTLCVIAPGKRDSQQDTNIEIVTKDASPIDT

This test deals with Phosphodiesterase (Crotalus adamanteus, UniProt J3SE37). Nature of the test: Inhibition of Serpentes (snake) venom phosphodiesterase using bis(p-nitrophenyl)phosphate as substrate incubated for 30 min prior to substrate addition by spectrophotometric analysis.

A word on the IC50: it is the concentration that gives 50% inhibition. A lower IC50 goes with higher potency. In turn, `O=C(O)CN(CCN(CC(=O)O)CC(=O)O)CC(=O)O` came in with an IC50 of 74 µM. That is a double-digit micromolar value.
